These results are taken from patent US9359317B2, “Small molecule inhibitors of HIV proteases” (Purdue Research Foundation, priority 2008, dated 2016).

This experiment concerns the target HIV Protease (Human immunodeficiency virus type 1 group M subtype B, UniProt P04585). Kind of experiment: Inhibition of HIV Protease. Conditions: Table 1, Inhibition of HIV Protease by compounds of formula drawing 46. Format: biochemical.

Bounds are passed on as bounds.

As usually defined, the Ki is a measure of affinity in units of concentration, obtained from inhibition or displacement.

In turn, `C=CC[C@H]1O[C@@H](Cc2ccccc2)C[C@@H]1[C@@H](NS(=O)(=O)c1ccc(C)cc1)C(=O)O` yielded a Ki of 0.00041 µM. This counts as sub-nanomolar. The same measure for `C=CC[C@H]1O[C@@H](c2ccc(COC)cc2)C[C@@H]1[C@@H](NS(=O)(=O)c1ccc(C)cc1)C(=O)O`: greater than 1 µM; for `O=C(O)[C@H](NS(=O)(=O)c1ccc(CO)cc1)[C@@H]1CO[C@@H](Cc2ccccc2)C1`: greater than 1 µM.
